Experimental data published in paper PMC10150359 (Journal of Medicinal Chemistry, 2023).

Target: soluble EBOV-GP protein (Zaire ebolavirus, UniProt Q05320, A503V/I544T/T262A/V310A)
Settings: 100:1 ligand-protein molar ratio, 298 K

| Compound | STD-NMR recognition by EBOV-GP, competition |
| --- | --- |
| O=C(CCNCCC1CCN(Cc2ccccc2)CC1)NN(c1ccccc1)c1ccccc1 [Compound 11, 3-((2-(1-Benzylpiperidin-4-yl)ethyl)amino)-N′,N′-diphenylpropanehydrazide] | STD effects for the three aromatic rings |
| CCOC(=O)C1CCN(CC(=O)N(c2ccccc2)c2ccccc2)CC1 [Compound 41, Ethyl 1-(2-(Diphenylamino)-2-oxoethyl)piperidine-4-carboxylate] | weaker binder than 13 |
